One experiment has as its target recombinant RSV complex (Human respiratory syncytial virus A, UniProt P28887). The experiment is described as follows: RSV polymerase inhibition assay. The conditions noted are these: 10 nM recombinant RSV complex, 2 h at 30° C.; Table E = <1 μM, Table F = <50 μM. Here is the method:
Standard RSV polymerase assays were conducted in the presence of 10 nM recombinant RSV complex in a reaction buffer containing Tris-HCl pH7.5, 6 mM MgCl2, and other additives and substrates including RNA oligonucleotides and radionucleotides. Standard reactions were incubated in 96-well plate format for 2 h at 30° C., in the presence of increasing concentration of inhibitor. The reaction was stopped with 90 μL of 0.1M EDTA, and the reaction product was transferred to a “reading” 96-well plate. After washing of the plate, radiolabeled RNA products were detected according to standard procedures with a Trilux Topcount scintillation counter. The compound concentration at which the enzyme-catalyzed rate was reduced by 50% (IC50) was calculated by fitting the data to a non-linear regression (sigmoidal).

Chains of the proteins cited; added tags and fusions are not shown.
UniProt P28887, whole entry: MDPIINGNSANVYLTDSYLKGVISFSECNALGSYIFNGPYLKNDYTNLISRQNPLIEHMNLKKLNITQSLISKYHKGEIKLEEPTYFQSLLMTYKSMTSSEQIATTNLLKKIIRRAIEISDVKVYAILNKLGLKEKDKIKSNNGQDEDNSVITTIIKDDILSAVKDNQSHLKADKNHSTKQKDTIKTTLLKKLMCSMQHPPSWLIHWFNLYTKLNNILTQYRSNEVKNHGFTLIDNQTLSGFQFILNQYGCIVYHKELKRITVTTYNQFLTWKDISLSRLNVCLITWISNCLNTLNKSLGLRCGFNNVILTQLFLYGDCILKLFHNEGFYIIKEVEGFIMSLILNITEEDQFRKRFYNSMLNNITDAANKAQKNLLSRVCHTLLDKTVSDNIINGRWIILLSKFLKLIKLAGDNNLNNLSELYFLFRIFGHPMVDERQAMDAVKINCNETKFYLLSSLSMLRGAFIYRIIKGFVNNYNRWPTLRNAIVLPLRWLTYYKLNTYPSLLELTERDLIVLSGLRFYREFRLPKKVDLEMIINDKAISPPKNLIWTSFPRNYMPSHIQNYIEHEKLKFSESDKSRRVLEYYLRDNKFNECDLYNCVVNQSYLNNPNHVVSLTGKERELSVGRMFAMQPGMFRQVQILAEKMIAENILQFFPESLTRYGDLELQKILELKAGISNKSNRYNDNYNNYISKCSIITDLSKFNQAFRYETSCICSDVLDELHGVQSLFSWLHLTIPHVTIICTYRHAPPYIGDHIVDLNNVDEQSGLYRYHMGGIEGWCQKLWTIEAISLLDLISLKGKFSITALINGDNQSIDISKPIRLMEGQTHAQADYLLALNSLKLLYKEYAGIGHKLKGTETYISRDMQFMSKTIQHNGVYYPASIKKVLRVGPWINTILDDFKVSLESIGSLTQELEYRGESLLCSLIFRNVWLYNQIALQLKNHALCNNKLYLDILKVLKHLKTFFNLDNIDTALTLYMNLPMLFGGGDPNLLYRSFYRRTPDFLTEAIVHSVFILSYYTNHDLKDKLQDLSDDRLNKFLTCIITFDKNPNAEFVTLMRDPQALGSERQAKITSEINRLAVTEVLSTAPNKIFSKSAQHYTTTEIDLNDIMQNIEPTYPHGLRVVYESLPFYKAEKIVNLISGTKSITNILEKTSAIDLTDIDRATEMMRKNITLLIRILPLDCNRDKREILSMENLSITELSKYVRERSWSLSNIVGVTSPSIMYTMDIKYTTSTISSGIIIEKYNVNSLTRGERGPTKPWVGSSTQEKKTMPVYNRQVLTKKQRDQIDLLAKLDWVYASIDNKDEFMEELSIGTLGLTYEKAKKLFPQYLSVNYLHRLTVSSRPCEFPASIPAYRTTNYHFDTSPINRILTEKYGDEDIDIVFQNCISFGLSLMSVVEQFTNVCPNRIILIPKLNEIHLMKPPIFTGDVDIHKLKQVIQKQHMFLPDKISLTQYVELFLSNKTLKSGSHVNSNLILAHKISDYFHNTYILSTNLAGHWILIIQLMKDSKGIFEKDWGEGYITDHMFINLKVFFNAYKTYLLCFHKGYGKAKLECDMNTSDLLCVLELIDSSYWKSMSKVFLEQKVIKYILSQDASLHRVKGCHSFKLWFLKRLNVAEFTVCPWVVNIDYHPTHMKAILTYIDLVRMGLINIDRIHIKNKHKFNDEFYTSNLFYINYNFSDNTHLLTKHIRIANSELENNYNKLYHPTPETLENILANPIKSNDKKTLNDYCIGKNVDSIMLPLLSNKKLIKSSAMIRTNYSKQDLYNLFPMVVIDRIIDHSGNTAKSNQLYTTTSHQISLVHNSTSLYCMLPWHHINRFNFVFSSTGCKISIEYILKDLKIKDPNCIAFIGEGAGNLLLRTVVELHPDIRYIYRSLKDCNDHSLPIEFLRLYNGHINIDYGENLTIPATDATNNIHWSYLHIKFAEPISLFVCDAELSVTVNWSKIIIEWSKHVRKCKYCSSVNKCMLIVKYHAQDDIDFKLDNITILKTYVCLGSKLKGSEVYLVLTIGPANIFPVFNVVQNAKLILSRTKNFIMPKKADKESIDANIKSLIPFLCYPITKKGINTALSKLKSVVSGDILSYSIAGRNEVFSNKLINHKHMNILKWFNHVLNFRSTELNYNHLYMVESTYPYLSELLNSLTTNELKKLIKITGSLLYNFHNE
UniProt P03421, whole entry partner: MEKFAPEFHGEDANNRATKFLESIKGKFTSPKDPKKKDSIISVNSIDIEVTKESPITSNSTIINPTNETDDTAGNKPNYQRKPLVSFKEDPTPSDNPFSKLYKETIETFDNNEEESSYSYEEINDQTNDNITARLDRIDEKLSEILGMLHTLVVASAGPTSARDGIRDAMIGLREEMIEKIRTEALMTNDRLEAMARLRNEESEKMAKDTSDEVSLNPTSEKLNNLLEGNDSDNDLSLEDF

The subject of experiment [1] is RSV subgenomic replicon 395 HeLa and APC126. The experiment is described as follows: RSV subgenomic replicon assay (Renilla luciferase). Type of experiment: cell-based. The note with it: RSV replicon cells (395 HeLa 7 days or APC126 3 days); Table G = less than 1 μM, Table H = equal to or higher than 1 μM and less than 50 μM. The source says:
The RSV subgenomic replicon 395 HeLa and APC126 were licensed from Apath (Brooklyn, N.Y.) and were originally developed by Dr. Mark Meeples of Center for Vaccines & Immunity, the Research Institute at Nationwide Children's Hospital in Columbus, Ohio. To generate subgenomic RSV replicon, three glycoprotein genes, those for SH, G, and F, from a full-length recombinant GFP-expressing (rg) RSV antigenomic cDNA were deleted. In their place, a blasticidin S deaminase (bsd) gene was inserted. Through multiple steps, the RSV replicon was established in HeLa cells (395 Hela) or BHK cells (APC126). Both 395 HeLa and APC126 cells were cultured in Dulbecco's Modified Eagle Medium (DMEM) containing 4500 mg/L D-glucose, L-glutamine, and 110 mg/L sodium pyruvate (Invitrogen, Cat. #11995-040). The medium was further supplemented with 10% (v/v) fetal bovine serum (FBS) (Mediatech, Cat. #35-010-CV), 1% (v/v) penicillin/streptomycin (Mediatech, Cat. #30-002-CI), and 10 μg/mL of Blasticidin (BSD) (Invivogen, Cat. code ant-bl-1). Cells were maintained at 37° C. in a humidified 5% CO2 atmosphere. […]
The Renilla Luciferase Assay System (Promega, Cat. #E2820) was used to measure anti-RSV replicon activity. […] Luminescence was recorded using a Perkin Elmer multilabel counter Victor3V. […]
For orientation: Replicon systems follow genome replication, usually without infectious particles.

Molecules are shown by their SMILES.

In general, IC50 refers to the point on the concentration scale where inhibition reaches its midpoint. What is called EC50 is the midpoint of the concentration-response curve. Low values mean an effect from little substance, high ones a need for much substance. In the case of `COc1cc(C(=O)NC[C@@](O)(c2cc3c(c(-c4ccc(F)cc4)n2)NC[C@@]3(C)N)C(F)(F)F)ccc1O[C@H]1CCNC1=O`, the IC50 at recombinant RSV complex was under 1000 nM. The compound also registered an EC50 in experiment [1] of under 1000 nM.

Values taken from US10358453B2, “Antiviral compounds” (priority 2015, dated 2019).
